# Reference: PMC8906008 (Antiviral Research, 2022)
# System: SARS-CoV-2 nsp4-5-6 C145A
# Type: cell-based
smiles,measurement,value
"Cc1sc2c(c1C)C(c1ccc(Cl)cc1)=N[C@@H](CC(=O)NCCCCCCCCNC(=O)COc1cccc3c1C(=O)N(C1CCC(=O)NC1=O)C3=O)c1nnc(C)n1-2 (stereo partly shown) [Compound #2, dBET6]",Secondary screen nsp5-CA RLU (%),233.3 ± 6.6%
